Target: T1, Flag-TRAF2, not stated, Q12933 1-501
T1 sequence: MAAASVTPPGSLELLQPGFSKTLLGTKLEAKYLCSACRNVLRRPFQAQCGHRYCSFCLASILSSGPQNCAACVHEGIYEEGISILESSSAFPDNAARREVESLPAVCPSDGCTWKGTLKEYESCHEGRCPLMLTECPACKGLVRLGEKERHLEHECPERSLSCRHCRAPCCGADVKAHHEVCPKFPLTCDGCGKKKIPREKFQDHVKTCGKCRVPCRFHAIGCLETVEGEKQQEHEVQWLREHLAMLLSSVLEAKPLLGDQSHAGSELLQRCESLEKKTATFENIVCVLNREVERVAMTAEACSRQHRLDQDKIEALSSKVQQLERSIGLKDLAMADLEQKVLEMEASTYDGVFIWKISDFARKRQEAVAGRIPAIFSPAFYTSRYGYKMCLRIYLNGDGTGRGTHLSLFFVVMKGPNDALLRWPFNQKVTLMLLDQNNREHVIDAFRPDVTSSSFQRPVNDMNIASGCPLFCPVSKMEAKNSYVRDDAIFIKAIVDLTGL
Assay: co-immunoprecipitation from 293T lysates

Substance: vaccinia virus A52R protein
- result: no binding
